Experimental findings from PMC8062000, “High-throughput screening of the ReFRAME, Pandemic Box, and COVID Box drug repurposing libraries against SARS-CoV-2 nsp15 endoribonuclease to identify small-molecule inhibitors of viral activity” (PLoS ONE, 2021) are described below.

Read-outs that look alike come from different tables or passages of the source.

For assay [1], the target named is SARS-CoV-2 nsp15 endoribonuclease (endoU) (Severe acute respiratory syndrome coronavirus 2, UniProt P0DTD1). As to the kind of experiment: nsp15 endoribonuclease FRET assay (1°, 2°, 3°). The class given is biochemical.
Assay [2] has as its system SARS-CoV-2. As to the kind of experiment: In vitro CPE assay in Vero 76 cells. The class given is cell-based.
[3] abbreviates: read-out: 2° FRET Assay IC50, secondary dose response, 8-point 3-fold, top concentration 10 μM.
Where [4] appears, read: read-out: 3° FRET Assay IC50, tertiary dose response, expanded concentration range.

Turning to `O=C1C(NC2CCCCCCC2)=CC(=O)c2ncccc21` [Azaquinone], in assay [1] (setting [3]), the IC50 is 3.12 µM.
For the molecule `Cc1nc2c(s1)C(=O)C=C(NCCN(C)C)C2=O` [BN-82685], the IC50 in assay [1] (setting [3]) came to 6.32 µM.
On to `O=C(Nc1ccc(O)c(O)c1)c1cccc(O)c1O` [Exebryl-1], for which the IC50 in assay [1] (setting [3]) was 1.06 µM. Also, the selectivity index (SI) in assay [2] (Vero 76, microscopic observation) worked out at 5.2; in assay [2] (Vero 76, neutral red staining) it was 3.6.
For `O=C(Nc1cccc(C2=NCCN2)c1)c1ccc(-c2ccc(C(=O)Nc3cccc(C4=NCCN4)c3)cc2)cc1` [MMV1580853], the IC50 in assay [1] (setting [3]) was > 10 µM; in assay [1] (setting [4]), 11.5 µM.
Regarding `O=C1NC(=O)/C(=C\c2ccccc2)C2=C1CCCC2` [Tesimide], the half-maximal inhibitory concentration (IC50) worked out at 1.09 µM in assay [1] (setting [3]) and 0.75 µM in assay [1] (setting [4]). Also, the “3° FRET Assay IC50” value in assay [1] (tertiary dose response, expanded concentration range) is recorded as “sub-micromolar”.

One may read the IC50 as the point on the concentration scale where inhibition reaches its midpoint.
